{"source": "patent US10688169B2", "about": "(priority 2015, dated 2020)", "key": {"[1]": {"system": "capsular polysaccharide of carbapenem-resistant K. pneumoniae strains", "conditions": "rabbits n=3, s.c., 10 μg sugar equivalent in alum at day 0 and 14; sera day 0, 14, 21"}, "C57BL/6J mice": {"system": "C57BL/6J mice", "conditions": "mice immunized with CRM197-23* in Freund's adjuvant; glycan microarray, pooled sera"}}}
{"smiles": "C[C@@H]1O[C@@H](O[C@H]2C(C(=O)O)O[C@H](OC3C(O)[C@@H](O)[C@H](C)O[C@H]3OC3C(O)[C@@H](O)[C@H](C)O[C@H]3OC3C(O)[C@@H](O)[C@H](C)O[C@H]3OCCCCCN)C(O)[C@H]2O[C@@H]2OC(CO)[C@H](O)[C@H](O)C2O)C(O)C(O)[C@H]1O", "note": "(stereo partly drawn) [hexasaccharide 23*, 5-Amino-pentanyl α-L-rhamnopyranosyl-(1→4)-[P3-D-galactopyranosyl-(1→3)]-α-D-galactopyranosyluronic acid-(1→2)-α-L-rhamnopyranosyl-(1→2)-α-L-rhamnopyranosyl-(1→2)-α-L-rhamnopyranoside]", "values": [{"measurement": "immunogenicity / antibody titer (end point titer, total IgG) by ELISA", "setting": "[1]", "result": "immunogenic in rabbits and generates cross reactive antibodies"}, {"measurement": "hexasaccharide-specific IgG subclasses (IgG1, IgG2a, IgG3) contribution to IgG titer", "setting": "C57BL/6J mice", "result": "IgG1 and IgG2a were contributed bulk of the antigen-specific IgG titer"}]}
